Measured values as given in article PMC7594338.
Construct, isoform or probe ends are uncertain for at least one entry.

Experiments:
[1] = tested on: Rsp (AraC-type regulator) (Staphylococcus aureus); assay: EMSA; details: 1.5 ug Rsp, 8 fmol DNA, shift unchanged by 200-fold excess salmon sperm DNA; LightShift chemiluminescent EMSA kit; 8 fmol biotinylated DNA, 1.5 ug Rsp (65-365 ug/ml tested), 20 min at room temperature, 5% nondenaturing PAGE; recombinant protein; protein details: His tag (pQE-9); label: 5' biotin (forward primer); probe letters rebuilt from the primers and the genome
[2] = tested on: Rsp (AraC-type regulator) (Staphylococcus aureus); assay: competition with a labelled probe; details: 200-fold excess unlabeled, LightShift chemiluminescent EMSA kit, 8 fmol biotinylated DNA, 1.5 ug Rsp (65-365 ug/ml tested), 20 min at room temperature, 5% nondenaturing PAGE, recombinant protein, protein details: His tag (pQE-9), probe letters rebuilt from the primers and the genome

Row | Sequence | binding result [1] | further results
1 | GATTGATCAGTTCCTAACTCGCTATGAAGCAAGTTGCCAGGCGTACAAGGATATGCATCAAGATCAACACTTATCTTCTCAATTTAATACAAATCTATTTGAAGGAGATAAAGCACTCGTCACAAAATTTTTGGAAATCAATAGAACGCTTTCATAATAAGGGTTTGAAGTTTTATAATAGAAAAAAATTATTGAATTATGTTTGACATTTACATAAAAATAAGCAAATAATTGAGAAAAATAATCATTACGATTTGATTAAGTAATGCAACTTATCAATTTAGAAAGAGGAAAAGCAAATGAGAAAACTAACTAAAATGAGTGCAATGTTACTTGCATCAGGGCTAATTTTAACTGGTTGTGGCGGTAATAAAGGTTTAG (double strand) [cntA promoter fragment (381 bp)] | binds | 
2 | ACTTAGTAATCGGTTGTTGTATCAACATGCAACCGTAAACCTTATTTAAAGTTGCTTCTTGTGGCTCTACAAGCGAATGCAGTTGTCCGTTAACTACATTCACTTAGATGCTTTTACTGTTTTCACCTCAACTAAAACTTCAAAAAAGTTGCAGAAAACAAATCGTAACTATTACGATTTGATTATATACTATATTAGTTGAGAATCATTGTCAATAAAGGTTGTAAATGAATGCACATTTATATTTTGATAATCCTTCCATAAACATCGTATTCTCAGCACATTCAAGTCTTTTTGAAAATTTTTATCAATAATTGAATAGAAGTTCCGTTCTCGTCAGTTCAAAATTTTACGTAAGTTGTCTCTGCGTATTGCTTTAGTGAGAATAACCCACACTTGTGGAAACGTCCTTTTGTTAATCTACAATGGATCCCCTTGTCTTTCGCTAACATTTCCTATCACCAATCCTGTAACGAATTTTCATCGTCAAGTTG (double strand) [cntK promoter fragment, unlabeled competitor] |  | binding result ([2]; reduces shift of biotinylated cntK probe): binds
3 | ACTTAGTAATCGGTTGTTGTATCAACATGCAACCGTAAACCTTATTTAAAGTTGCTTCTTGTGGCTCTACAAGCGAATGCAGTTGTCCGTTAACTACATTCACTTAGATGCTTTTACTGTTTTCACCTCAACTAAAACTTCAAAAAAGTTGCAGAAAACAAATCGTAACTATTACGATTTGATTATATACTATATTAGTTGAGAATCATTGTCAATAAAGGTTGTAAATGAATGCACATTTATATTTTGATAATCCTTCCATAAACATCGTATTCTCAGCACATTCAAGTCTTTTTGAAAATTTTTATCAATAATTGAATAGAAGTTCCGTTCTCGTCAGTTCAAAATTTTACGTAAGTTGTCTCTGCGTATTGCTTTAGTGAGAATAACCCACACTTGTGGAAACGTCCTTTTGTTAATCTACAATGGATCCCCTTGTCTTTCGCTAACATTTCCTATCACCAATCCTGTAACGAATTTTCATCGTCAAGTTG (double strand) [cntK promoter fragment (494 bp)] | binds | 
4 | GATTGATCAGTTCCTAACTCGCTATGAAGCAAGTTGCCAGGCGTACAAGGATATGCATCAAGATCAACACTTATCTTCTCAATTTAATACAAATCTATTTGAAGGAGATAAAGCACTCGTCACAAAATTTTTGGAAATCAATAGAACGCTTTCATAATAAGGGTTTGAAGTTTTATAATAGAAAAAAATTATTGAATTATGTTTGACATTTACATAAAAATAAGCAAATAATTGAGAAAAATAATCATTACGATTTGATTAAGTAATGCAACTTATCAATTTAGAAAGAGGAAAAGCAAATGAGAAAACTAACTAAAATGAGTGCAATGTTACTTGCATCAGGGCTAATTTTAACTGGTTGTGGCGGTAATAAAGGTTTAG (double strand) [cntA promoter fragment, unlabeled competitor] |  | binding result ([2]; reduces shift of biotinylated cntA probe): binds
